Results of unrelated studies side by side (data: NIAID ChemDB).

Shared fields: cytotoxicity tests; cells: Huh7; read-out: CC50

CCn is the concentration with n% toxicity to the cells. Two numbers with a dash give a range or band. Conditions beyond the fields shown may differ between rows. Blank or dashed fields: not listed here.

structure,read by,result
CCOc1nc(N)nc2ccc(-c3ccc(C(=O)NC(C)(C)C)cc3)nc12,-,>20 µM
CCc1ccc2c(Nc3cc(C)ccc3Sc3ccc(O)cc3)ncnc2n1,MTT,78 µM
CCOc1nc(N)nc2ncc(-c3ccc(S(C)(=O)=O)cc3)nc12,-,>20 µM
CCCc1ccc2c(Nc3cc(C)ccc3Sc3ccccc3)ncnc2n1,MTT,11.8 µM
CC(C)CNC(=O)c1ccc(-c2ccc3nc(N)nc(OC(C)C)c3n2)cc1,-,>20 µM
N#Cc1c(NC2CCc3ccccc32)s[nH]c1=O,-,<50 µM
NS(=O)(=O)c1ccc(CNc2nc(NCC(F)(F)F)c3nc(-c4ccc(F)cc4)cnc3n2)cc1,ATP,>20 µM
N#Cc1c(Nc2ccc(C(=O)O)cc2)s[nH]c1=O,-,>50 µM
NS(=O)(=O)c1ccc(CNc2nc(NCC(F)(F)F)c3nc(-c4ccc(F)c(Cl)c4)cnc3n2)cc1,ATP,10–20 µM
N#Cc1c(NCCc2ccc(O)cc2)s[nH]c1=O,-,>50 µM
CCOc1nc(NCc2ccc(S(N)(=O)=O)cc2)nc2ncc(-c3ccc(F)cc3)nc12,ATP,>20 µM
Cc1ccc(Sc2ccc(O)cc2)c(Nc2ncnc3nc(N(C)C)ncc23)c1,MTT,>50 µM
Nc1nc(N2CCOCC2)c2nc(-c3cc4ccccc4o3)cnc2n1,-,>20 µM
Cc1ccc(Sc2ccccc2)c(Nc2ncnc3nc(C4CC4)ccc23)c1,MTT,9.9 µM
CCOc1nc(N)nc2ncc(-c3ccc(Cl)cc3)nc12,-,<10 µM
Cc1ccc(Sc2ccc(O)cc2)c(Nc2ncnc3nc(N4CCOCC4)ncc23)c1,MTT,>50 µM
CNOCc1ccc(-c2cnc3nc(N)nc(N4CCOCC4)c3n2)cc1,-,>20 µM
Nc1nc(O[C@H]2CCOC2)c2nc(-c3ccc(C(=O)NCCCN4CCCC4)cc3)ccc2n1,-,>20 µM
COc1ccc(-c2cnc3nc(N)nc(N4CCN(C(=O)c5cccs5)CC4)c3n2)cc1OC,ATP,10–20 µM
Nc1nc(N2CCOCC2)c2nc(-c3ccoc3)cnc2n1,-,>20 µM
CCOc1nc(N)nc2ccc(-c3ccc(C(=O)NC4CCCC4)cc3)nc12,-,>20 µM
CCNc1ncc2c(Nc3cc(C)ccc3Sc3ccc(O)cc3)ncnc2n1,MTT,>50 µM
CCOc1nc(N)nc2ccc(-c3ccc(NC(=O)[C@H](C)N)c(F)c3)nc12,-,>20 µM
CCOc1nc(N)nc2ncc(-c3ccc(O)cc3)nc12,-,>20 µM
COCCOc1nc(N)nc2ccc(-c3ccc(C(=O)NC(C)C)cc3)nc12,-,>20 µM
COc1ccc(-c2cnc3nc(N)nc(N4CCN(CCC#N)CC4)c3n2)cc1OC,ATP,10–20 µM
CC(C)C(=O)Nc1ccc(-c2ccc3nc(N)nc(O[C@H]4CCOC4)c3n2)cc1,-,>20 µM
COc1ccc(Sc2ccc(C)cc2Nc2ncnc3nc(C(C)C)ccc23)cc1,MTT,8.8 µM
Cc1cccc(Nc2s[nH]c(=O)c2C#N)c1,-,>50 µM
COc1ccc(-c2cnc3nc(N)nc(N4CCN(C(=O)Nc5cccc(C(F)(F)F)c5)CC4)c3n2)cc1OC,ATP,<10 µM
N#Cc1c(Nc2ccc(Br)cn2)s[nH]c1=O,-,>50 µM
CC(C)Oc1nc(N)nc2ccc(-c3ccc(C(=O)NC4CC4)c(Cl)c3)nc12,-,>20 µM
N#Cc1c(Nc2ccccc2F)s[nH]c1=O,-,>50 µM
COc1ccc(-c2cnc3nc(N)nc(N4CCN(Cc5ccc(C)cc5)CC4)c3n2)cc1OC,ATP,>20 µM
CCOc1nc(N)nc2ccc(-c3ccc(NC(=O)CC)cc3)nc12,-,>20 µM
N#Cc1c(Nc2ccccc2)s[nH]c1=O,-,>50 µM
COc1ccc(-c2cnc3nc(N)nc(N4CCN(C(=O)Nc5ccc(Br)cc5)CC4)c3n2)cc1OC,ATP,<10 µM

A second listing of 5 rows from above:

structure	read by	result
CC(C)CNC(=O)c1ccc(-c2ccc3nc(N)nc(OC(C)C)c3n2)cc1	-	>20 µM
CNOCc1ccc(-c2cnc3nc(N)nc(N4CCOCC4)c3n2)cc1	-	>20 µM
CCNc1ncc2c(Nc3cc(C)ccc3Sc3ccc(O)cc3)ncnc2n1	MTT	>50 µM
Nc1nc(N2CCOCC2)c2nc(-c3cc4ccccc4o3)cnc2n1	-	>20 µM
Cc1ccc(Sc2ccc(O)cc2)c(Nc2ncnc3nc(N(C)C)ncc23)c1	MTT	>50 µM